# Values of other authors, collected in paper PMC3002932, “Grifonin-1: A Small HIV-1 Entry Inhibitor Derived from the Algal Lectin, Griffithsin” (PLoS ONE, 2010).
# Experiments:
# [1] = ref [24], [28]; cited from earlier work
# [2] = ref [24], [28]; cited from earlier work; remark: listed apart in the source
# [3] = test system: proinflammatory cytokines; details: ref [24], [28]; cited from earlier work
substance,measurement,setting,value
griffithsin,toxicity,[1],caused minimal toxicity
same,stability over pH and temperature range,[2],stability over a satisfactory pH and temperature range
same,release of proinflammatory cytokines,[3],did not induce the release of proinflammatory cytokines
